Test results: patent publication US20220089698A1, “ANTIBODIES THAT TARGET HIV GP120 AND METHODS OF USE” (published 2022)
Read-outs that look alike come from different tables or passages of the source.

B1: 1.1.54-1 (antibody, human IgG1, kappa)
heavy: QVQLLQSGAAVTKPGASVRVSCEASGYNIRDYFIHWWRQAPGQGLQWVGWINPKTGQPNNPRQFQGRVSLTRHASWDFDTFSFYMDLKALRSDDTAVYFCARQRSDYWDFDVWGSGTQVTVSSASTKGPSVFPLAPSSKSTSGGTAALGCLVKDYFPEPVTVSWNSGALTSGVHTFPAVLQSSGLYSLSSVVTVPSSSLGTQTYICNVNHKPSNTKVDKKVEPKSCDKTHTCPPCPAPELLAGPDVFLFPPKPKDTLMISRTPEVTCVVVDVSHEDPEVKFNWYVDGVEVHNAKTKPREEQYNSTYRVVSVLTVLHQDWLNGKEYKCKVSNKALPLPEEKTISKAKGQPREPQVYTLPPSREEMTKNQVSLTCLVKGFYPSDIAVEWESNGQPENNYKTTPPVLDSDGSFFLYSKLTVDKSRWQQGNVFSCSVLHEALHSHYTQKSLSLSPGK
light: not shown
B2: 1.1.90-1 (antibody, human IgG1, kappa, V domains shown)
VH: QVQLLQSGAAVTKPGASVRVSCEASGYNIRDYFIHWWRQAPGQGLQWVGWINPKTGQPNNPRQFQGRVSLTRHASWDFDTFSFYMDLKALRSDDTAVYFCARQRSDYWDFDVWGSGTQVTVSS
VL: DIQMTQSPSSLSASVGDRATITCQANGYLNWYQQRRGKAPKLLIYDGSKLERGVPSRFSGSRWGQEYNLTISSLQPEDIATYFCQVYEFFGPGTRLDLKR

Tests used:
Test in all cases: cell-based or functional assay
[1] = target: HIV-1 envelope glycoprotein (gp120) of virus 7141 (HIV-1)
[2] = target: HIV-1 envelope glycoprotein (gp120) of virus VS001 (HIV-1)
[3] = target: HIV-1 envelope glycoprotein (gp120) of virus 92US712 (HIV-1)
[4] = target: HIV-1 envelope glycoprotein (gp120) of virus 92US727 (HIV-1)
[5] = target: HIV-1 envelope glycoprotein (gp120) of virus 8398 (HIV-1)
[6] = target: HIV-1 envelope glycoprotein (gp120) of virus 7015 (HIV-1)
[7] = target: HIV-1 envelope glycoprotein (gp120) of virus 7141 (HIV-1); remark: listed apart in the source
[8] = target: HIV-1 envelope glycoprotein (gp120) of virus 92US657 (HIV-1)
[9] = target: HIV-1 envelope glycoprotein (gp120) of virus 92HT593 (HIV-1)
[10] = target: HIV-1 envelope glycoprotein (gp120) of virus 1413 (HIV-1)
[11] = target: HIV-1 envelope glycoprotein (gp120) of virus 7576 (HIV-1)
[12] = target: HIV-1 envelope glycoprotein (gp120) of virus 92US727 (HIV-1); remark: listed apart in the source
[13] = target: HIV-1 envelope glycoprotein (gp120) of virus THRO (HIV-1)
[14] = target: HIV-1 envelope glycoprotein (gp120) of virus 8318 (HIV-1)
[15] = target: HIV-1 envelope glycoprotein (gp120) of virus 8320 (HIV-1)
[16] = target: HIV-1 envelope glycoprotein (gp120) of virus CH040 (HIV-1)
[17] = target: HIV-1 envelope glycoprotein (gp120) of virus RHPA (HIV-1)
[18] = target: HIV-1 envelope glycoprotein (gp120) of virus 7051 (HIV-1)
[19] = target: HIV-1 envelope glycoprotein (gp120) of virus 7007 (HIV-1)
[20] = target: HIV-1 envelope glycoprotein (gp120) of virus 7552 (HIV-1)
[21] = target: HIV-1 envelope glycoprotein (gp120) of virus 8339 (HIV-1)
[22] = target: HIV-1 envelope glycoprotein (gp120) of virus CH106 (HIV-1)
[23] = target: HIV-1 envelope glycoprotein (gp120) of virus 7595 (HIV-1)

Row | Binder | Neutralization IC50 [1] [µg/mL] | Neutralization IC50 [2] [µg/mL] | Neutralization IC50 [3] [µg/mL] | Neutralization IC50 [4] [µg/mL] | Neutralization IC50 [5] [µg/mL] | Neutralization IC50 [6] [µg/mL] | Neutralization IC50 [7] [µg/mL] | Neutralization IC50 [8] [µg/mL] | Neutralization IC50 [9] [µg/mL] | Neutralization IC50 [10] [µg/mL] | Neutralization IC50 [11] [µg/mL] | Neutralization IC50 [12] [µg/mL] | Neutralization IC50 [13] [µg/mL] | Neutralization IC50 [14] [µg/mL] | Neutralization IC50 [15] [µg/mL] | Neutralization IC50 [16] [µg/mL] | Neutralization IC50 [17] [µg/mL] | Neutralization IC50 [18] [µg/mL] | Neutralization IC50 [19] [µg/mL] | Neutralization IC50 [20] [µg/mL] | also measured
1 | B1 | 7.08 | 0.32 | 0.16 | > 50 | > 50 | 0.4 | 1.61 | 0.45 | 0.26 | 1.72 | 0.48 | 11.2 | 5.47 | 0.32 | 0.29 | > 50 | 0.03 | 0.23 | > 50 | 6.22 | Neutralization IC50 [21]: > 50 µg/mL; Neutralization IC50 [22]: 0.9 µg/mL; Neutralization IC50 [23]: 1.62 µg/mL
2 | B2 | 2.65 | 0.2 | 0.12 | 8.72 | > 50 | 0.41 | 2.24 | 0.48 | 0.39 | 1.94 | 0.41 | 2.17 | 10.6 | 0.57 | 0.34 | 22.1 | 0.15 | 0.44 | > 50 | 27.8 | Neutralization IC50 [21]: > 50 µg/mL; Neutralization IC50 [22]: 1 µg/mL; Neutralization IC50 [23]: 1.76 µg/mL
